In PubChem BioAssay AID504690 (Sanford-Burnham Center for Chemical Genomics, 2011):
Only a part is listed here, and it is no random draw. Some salts and complexes are drawn in separate pieces, as the source files them; their charges need not balance. The source made the active and inactive calls.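 Rule for the calls: active = inhibition reaching at least a set limit at 20 µM in the primary screen (cut at about 59% in these data); inactive = the rest.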

These compounds were tested on glucose-6-phosphate dehydrogenase-6-phosphogluconolactonase (Plasmodium falciparum 3D7) (assay: PfG6PD enzyme inhibitors, primary screen, biochemical, fluorescence intensity, uHTS (AID 504690;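 note: 0% = DMSO wells with substrate and 100% = DMSO wells lacking glucose-6-phosphate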)). Details: PfGluPho enzyme, NADPH resazurin-diaphorase fluorescence; at 20 µM; hits give high values.

| Compound | inhibition |
| --- | --- |
| COc1ccc(OP(C)(=O)Nc2ccccn2)cc1 (centres undefined) | inactive: -7.96% |
| CN(C)CCOC(=O)C(O)(c1ccccc1)C1CCCC1 (centres undefined) | inactive: -0.07% |
| COc1ccccc1OP(C)(=O)Nc1ccc(Br)cc1 (centres undefined) | inactive: -7.46% |
| COc1ccccc1OP(C)(=O)Nc1ccc(C)cc1C (centres undefined) | inactive: -2.8% |
| CP(=O)(Nc1ccccn1)Oc1ccccc1 (centres undefined) | inactive: -10.3% |
| CCc1ccc(OP(C)(=O)O)cc1 | inactive: -6.65% |
| Cc1c(NP(C)(=O)Oc2ccc(C(C)C)cc2)c(=O)n(-c2ccccc2)n1C (centres undefined) | inactive: -17.8% |
| O=[N+]([O-])c1cc([N+](=O)[O-])c(Nc2ccccn2)c([N+](=O)[O-])c1 | active: 89.9% |
| COc1ccccc1OP(C)(=O)Nc1ccc(C)c(C)c1 (centres undefined) | inactive: -2.94% |
| COc1ccc(OP(C)(=O)Nc2ccccc2Br)cc1 (centres undefined) | inactive: -2.45% |
| Cc1cc(C)cc(OP(C)(=O)Nc2cccc(C(F)(F)F)c2)c1 (centres undefined) | inactive: 8.1% |
| O=C1C(O)=C([N+](=O)[O-])C(=O)C(O)=C1[N+](=O)[O-] | inactive: 11% |
| CCCCCCCCCCCCCCCC1C[N+](C)(C)CCOP(C)(=O)O1 (centres undefined) | inactive: 12.4% |
| CP(=O)(Nc1ccc(Cl)cc1Cl)Oc1ccccc1 (centres undefined) | inactive: -13.8% |
| CP(=O)(OCCOc1ccccc1)OCCOc1ccccc1 | inactive: 0.75% |
| CCOC(=O)c1ccc(NP(C)(=O)Oc2ccc(F)cc2)cc1 (centres undefined) | inactive: -13.1% |
| COc1ccc(OP(C)(=O)Nc2ccc(SC(F)(F)F)cc2)cc1 (centres undefined) | inactive: 8.54% |
| CP(=O)(Nc1ccccc1)Oc1ccc(F)cc1 (centres undefined) | inactive: -20.9% |
| CCCCCOc1ccc(NP(C)(=O)Oc2ccc(Cl)cc2Cl)cc1 (centres undefined) | inactive: 15.7% |
| O=[N+]([O-])c1cc([N+](=O)[O-])c(OC2CCCCC2O)c([N+](=O)[O-])c1 (centres undefined) | inactive: -32.3% |

| Compound | inhibition |
| --- | --- |
| Cc1c([N+](=O)[O-])cc([N+](=O)[O-])c(Br)c1[N+](=O)[O-] | inactive: 5.38% |
| CCN(CC)CCCOC(=O)C(O)(c1ccccc1)C1CCCCC1 (centres undefined) | inactive: 6.51% |
| CP(=O)(Nc1ccccc1F)Oc1ccccc1 (centres undefined) | inactive: -4.23% |
| CC(C)c1ccc(OP(C)(=O)Nc2ccc(SC(F)(F)F)cc2)cc1 (centres undefined) | inactive: 19.9% |
| O=[N+]([O-])c1cc([N+](=O)[O-])c(Nc2ccc(Cl)cc2)c([N+](=O)[O-])c1 | inactive: 23.9% |
| COc1ccc2c(c1O)-c1c(O)c(OC)cc3c1[C@H](C2)[N+](C)(C)CC3.O=[N+]([O-])c1cc([N+](=O)[O-])c([O-])c([N+](=O)[O-])c1[O-] | inactive: 34.2% |
| O=C(OC1CN2CCC1CC2)c1ccc([N+](=O)[O-])cc1 (centres undefined) | inactive: 6.94% |
| O=C(OCCN1CCN(CCOCc2ccccc2)CC1)C(O)(c1ccccc1)c1ccccc1 | inactive: -10.6% |
| CCOP(C)(=S)SCC(=O)NC(C)(CC)C(=O)O (centres undefined) | inactive: -6.34% |
| CP(=O)(Nc1ccc(SC(F)(F)F)cc1)Oc1ccc(F)cc1 (centres undefined) | inactive: -3.27% |
| Cc1ccccc1NP(C)(=O)Nc1ccccc1C | inactive: 3.81% |
| CP(=O)(Nc1ccc2c(c1)OCCO2)Oc1ccccc1 (centres undefined) | inactive: 12% |
| CN(C)CCOC(=O)C(O)(c1ccccc1)C1CCCCC1 (centres undefined) | inactive: 5.51% |
| COc1ccc(NP(C)(=O)Oc2ccccc2OC)cc1 (centres undefined) | inactive: 2.6% |
| COc1ccc(OP(C)(=O)Nc2cccc(Br)c2)cc1 (centres undefined) | inactive: 0.96% |
| Cc1c(C(c2ccc3c(c2)OCO3)c2c(C)n(C)n(-c3ccccc3)c2=O)c(=O)n(-c2ccccc2)n1C.O=[N+]([O-])c1cc([N+](=O)[O-])c(O)c([N+](=O)[O-])c1 | inactive: -7.61% |
| O=[N+]([O-])c1ccc(OP2(=O)COCCO2)cc1 (centres undefined) | inactive: 5.77% |
| O=[N+]([O-])c1cc([N+](=O)[O-])c(NCC2CCS(=O)(=O)C2)c([N+](=O)[O-])c1 (centres undefined) | inactive: 9.48% |
| Cc1cc(-c2cccc3ccccc23)c(C)cn1.O=[N+]([O-])c1cc([N+](=O)[O-])c(O)c([N+](=O)[O-])c1 | inactive: 5.68% |
